The values that follow come from paper PMC5995905, “Confirmation of high-throughput screening data and novel mechanistic insights into VDR-xenobiotic interactions by orthogonal assays” (Scientific Reports, 2018).

Amino acid sequences for entries named in this document (tags omitted). A change or cut given only in a name is not applied to a line headed by its entry.
UniProt P11473: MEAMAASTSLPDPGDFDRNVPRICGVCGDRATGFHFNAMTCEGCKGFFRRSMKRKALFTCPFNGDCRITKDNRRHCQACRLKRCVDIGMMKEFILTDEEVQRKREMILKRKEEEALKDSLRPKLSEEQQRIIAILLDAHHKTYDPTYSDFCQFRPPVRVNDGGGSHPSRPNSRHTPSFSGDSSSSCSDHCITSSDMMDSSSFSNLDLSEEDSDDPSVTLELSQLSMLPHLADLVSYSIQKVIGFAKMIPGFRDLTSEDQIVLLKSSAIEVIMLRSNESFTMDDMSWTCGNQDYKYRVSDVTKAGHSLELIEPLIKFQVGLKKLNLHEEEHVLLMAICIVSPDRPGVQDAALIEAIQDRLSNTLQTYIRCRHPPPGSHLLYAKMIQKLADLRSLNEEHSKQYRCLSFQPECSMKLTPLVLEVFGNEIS

“Also recorded” adds a separate entry of the source.

In one experiment the target is VDR:RXRα (Homo sapiens, UniProt P11473). Briefly: Mammalian 2-hybrid assay, recruitment of RXRα by VDR, Cos7 cells. As to conditions: antagonists with 1,25D3; -SRC-1; percentage of vitamin D3; conc. in Fig 6: phenylarsine oxide 0.37, dibutyltin dichloride 1, K dicyanoaurate 6, aristolochic acid, carfizomib 12, menadiol 3 μM.
In another experiment the target is VDR:NCoR (Homo sapiens, UniProt P11473). Briefly: Mammalian 2-hybrid assay, recruitment of corepressor NCoR by VDR, Cos7 cells. As to conditions: antagonists, normalized to DMSO set to 1.
Experiment [1] deals with VDR:RXR, VDR:SRC-1 and VDR:NCoR interactions (Homo sapiens, UniProt P11473). Briefly: Mammalian 2-hybrid assay, summary in words of VDR coregulator interactions. The format is cell-based. The note with it: antagonists; with or without co-transfected full length RXR or SRC-1; listed as phenylarsine oxide.
For experiment [2], the system named is human VDR ligand-binding domain. As to conditions: read-out: Tox21 IC 50; antagonist mode; Tox21 qHTS data set; cited from earlier work.
Another experiment has as its target VDR:SRC-1 (Homo sapiens, UniProt P11473). Nature of the experiment: Mammalian 2-hybrid assay, recruitment of coactivator SRC-1 by VDR, Cos7 cells. The note with it: antagonists with 1,25D3; -RXR; percentage of vitamin D3; conc. in Fig 6: phenylarsine oxide 0.37, Cd chloride 12, dibutyltin dichloride 1, aristolochic acid 12 μM.
The next experiment concerns the target human VDR (Homo sapiens, UniProt P11473). Nature of the experiment: Transient transactivation assay (CYP24-Luc), antagonist mode with 3 nM 1,25D3, HEK293T cells. As to conditions: antagonists; transient transactivation assay in the presence of 3 nM 1,25D3. The format is cell-based.

In the case of `O=[As]c1ccccc1` (stereo not shown), the “% Induction (pMRXRα + EpSG5)” value on VDR:RXRα was determined as 22.8%. Moreover, the “Fold Change (pMNCoR + RXRα)” value at VDR:NCoR (+RXR, conc. in Fig 6: phenylarsine oxide 0.37, proscillaridin, aristolochic acid 12 μM) was 1.5 fold. The “Fold Change (pMNCoR + EpSG5)” value at VDR:NCoR (-RXR, conc. in Fig 6: K dicyanoaurate 6, proscillaridin, aristolochic acid 12, thiram 1 μM) turned out to be 1.2 fold. In experiment [1], the “pattern of change of 1,25D3 induced VDR:coregulator interaction” value is recorded as “selectively inhibit VDR:RXR interactions only in the absence of full length wild type SRC-1; also recorded: selectively inhibited VDR:SRC-1 interactions only in the absence of full length wild type RXR”. Also, the IC50 in experiment [2] was 97.5 nM. Moreover, the “% Induction (pMSRC-1NR + EpSG5)” value on VDR:SRC-1 is 45.4%. For the same compound, the result at human VDR was Active.
